Earlier results as cited in article PMC8206078, “Identification of pyrogallol as a warhead in design of covalent inhibitors for the SARS-CoV-2 3CL protease” (Nature Communications, 2021).

Target: SARS-CoV-2 Mpro
Settings: cited from earlier work

**Q.** For GC376, which Ki is on record?
**A.** 60 nM
